Literature values, collected in patent US8022090B2, “Vitamin C composition stabilized with cationic material, anionic material and caffeic acid derivative” (The Faceshop Korea Co., Ltd, priority 2007, dated 2011).

System: production of aflatoxin
Settings: background statement; cited from earlier work

Q: With `O=C(O)/C=C/c1ccc(O)c(O)c1` [caffeic acid] as the compound, how does the “decrease of the production of aflatoxin” value read?
A: Its value is “more than 95%”.
